Laboratory results as given in PMC7128415 (Journal of Clinical Virology, 2004).

Key:
[1] = test system: SARS coronavirus; format: cell-based
[2] = test system: SARS coronavirus
[3] = test system: fRhK4 cell line
[4] = test system: SARS coronavirus; format: cell-based; remark: listed apart in the source
[5] = test system: SARS-associated virus; settings: cited from earlier work

What does the source list for “Interferon beta 1a: interferon-beta-1a (Rebif, Serono, Italy)”?
EC50 (plaque reduction assay) [1]: 8 U/ml; EC50 at 72 h [2]: 10,000 IU ^a; antiviral activity [2]: showed antiviral activity; inhibitory activities by neutralization tests [2]: detectable inhibitory activities; CC50 [3]: >10,000 IU ^a

B1: interferon-beta: interferon-beta, subtype not specified at that place; in this study interferon-beta-1a was used (protein, UniProt P01574 22-187, looked up)
Interferon beta: MSYNLLGFLQRSSNFQCQKLLWQLNGRLEYCLKDRMNFDIPEEIKQLQQFQKEDAALTIYEMLQNIFAIFRQDSSSTGWNETIVENLLANVYHQINHLKTVLEEKLEKEDFTRGKLMSSLHLKRYYGRILHYLKAKEYSHCAWTIVRVEILRNFYFINRLTGYLRN
For B1, which “activity in Vero-E6 cell line compared with fRhK-4” value [4] is on record?
Its value is “more active”.

What about the “antiviral activity against SARS coronavirus” value [5] of the same molecule?
The value was “significant antiviral activity”.
